Results from patent US20210386505A1, “BACTERIAL BIOFILM STAINING DEVICE AND METHODS OF USE” (University of Utah Research Foundation, priority 2020, published 2021).

Test system: healthy sheep tissues
Assay: MB staining of healthy sheep tissues in vitro (photography, red channel analysis)

Question: What does the source list for `CN(C)c1ccc2nc3ccc(=[N+](C)C)cc-3sc2c1` [MB, methylene blue]?
Answer: staining of tissue (articular cartilage): significant staining; staining of tissue (bone): did not display appreciable staining; staining of tissue (fat): did not display appreciable staining; staining of tissue (meniscus): significant staining; staining of tissue (muscle): did not display appreciable staining; staining of tissue (nerve): did not display appreciable staining; staining of tissue (tendon): did not display appreciable staining
